According to article PMC11904993, “Humanized Candida and NanoBiT Assays Expedite Discovery of Bdf1 Bromodomain Inhibitors With Antifungal Potential” (Advanced Science, 2025):
Values joined by “and” are separate entries in the source; they are usually repeats but may differ in a detail not shown here. Equal values may be shown once. Read-outs that look alike come from different tables or passages of the source.

Sequences of proteins named here, by UniProt entry; tags and fusion partners are left off. Residues count along the entry.
UniProt Q6FWV7, 100-228 limits assumed: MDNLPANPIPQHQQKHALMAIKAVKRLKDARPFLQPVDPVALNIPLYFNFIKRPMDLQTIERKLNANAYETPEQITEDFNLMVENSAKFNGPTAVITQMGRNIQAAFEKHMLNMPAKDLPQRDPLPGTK
UniProt Q6FWV7, 269-391 limits assumed: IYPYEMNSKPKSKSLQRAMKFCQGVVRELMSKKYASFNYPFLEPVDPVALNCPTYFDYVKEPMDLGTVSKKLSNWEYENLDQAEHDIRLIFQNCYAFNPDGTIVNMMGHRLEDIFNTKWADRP

Assays:
[1] = biological target: CgBdf1 BD1 (Candida glabrata, UniProt Q6FWV7); assay: HTRF assay, inhibition of H4ac4 peptide binding; parameters: species or system C. glabrata; settings: for IC50: Table S4
[2] = biological target: CgBdf1 BD2 (Candida glabrata, UniProt Q6FWV7); settings: for IC50: Table S4
[3] = system: CgBdf1 BD1
[4] = system: CgBdf1 BD2
[5] = system: C. glabrata strains expressing WT and mutant Bdf1; assay: Growth inhibition in liquid media, C. glabrata lab strains; settings: Exp 1-3, Figure S9A
[6] = Fig 1D/2A original data, single experiments Exp1-3

CCC(C)NC(=O)Nc1cc2c(cc1Oc1ccccc1)n(C)c(=O)n2C (stereo not drawn)
IC50 ([1]; CgBD1, individual experiments Exp1-3): 4400 nM and 4660 nM and 5850 nM
pIC50 CgBD1 [1, 6]: 5.356 and 5.332 and 5.233
IC50 ([1]; read-out: IC50 CgBD1, means ± SD, n=3): 4970 nM
IC50 ([2]; CgBD2, individual experiments Exp1-3): 1120 nM and 680 nM and 1100 nM
pIC50 CgBD2 [2, 6]: 5.950 and 6.168 and 5.958
IC50 ([2]; read-out: IC50 CgBD2, means ± SD, n=3): 970 nM
Normalized (0 to 100%), WT, Average ([3]; CgBdf1 BD1 WT, normalized peptide array signal): 1.42%
Raw data, WT, Left ([3]; CgBdf1 BD1 WT, peptide array signal, left replicate): 0.007246
Raw data, WT, Rigt ([3]; CgBdf1 BD1 WT, peptide array signal, right replicate): 0.02111
Normalized (0 to 100%), YF mutant, Average ([3]; CgBdf1 BD1 YF mutant, normalized peptide array signal): 0.494%
Raw data, YF mutant, Left ([3]; CgBdf1 BD1 YF mutant, peptide array signal, left replicate): 0.006786
Raw data, YF mutant, Right ([3]; CgBdf1 BD1 YF mutant, peptide array signal, right replicate): 0.003085
Normalized (0 to 100%), WT, Average ([4]; CgBdf1 BD2 WT, normalized peptide array signal): 0.686%
Raw data, WT, Left ([4]; CgBdf1 BD2 WT, peptide array signal, left replicate): 0.00811
Raw data, WT, Rigt ([4]; CgBdf1 BD2 WT, peptide array signal, right replicate): 0.005614
Normalized (0 to 100%), YF mutant, Average ([4]; CgBdf1 BD2 YF mutant, normalized peptide array signal): 1%
Raw data, YF mutant, Left ([4]; CgBdf1 BD2 YF mutant, peptide array signal, left replicate): 0.01656
Raw data, YF mutant, Right ([4]; CgBdf1 BD2 YF mutant, peptide array signal, right replicate): 0.004294
OD at 600 nm ([5]; WT BDF1 strain): 0.5373 and 0.5303 and 0.5753
OD at 600 nm ([5]; bdf1-bd1Δ strain): 0.2883 and 0.3133 and 0.2963
OD at 600 nm ([5]; bdf1-bd2Δ strain): 0.2283 and 0.1973 and 0.2093
